Results: patent publication US20100256070A1 (GENERAL HOSPITAL, published 2010)

Molecular target: urokinase-like plasminogen activator receptor (uPAR/CD87) (UniProt Q03405 23-305)
Assay: cell-based or functional assay

B1:  (other)
chain: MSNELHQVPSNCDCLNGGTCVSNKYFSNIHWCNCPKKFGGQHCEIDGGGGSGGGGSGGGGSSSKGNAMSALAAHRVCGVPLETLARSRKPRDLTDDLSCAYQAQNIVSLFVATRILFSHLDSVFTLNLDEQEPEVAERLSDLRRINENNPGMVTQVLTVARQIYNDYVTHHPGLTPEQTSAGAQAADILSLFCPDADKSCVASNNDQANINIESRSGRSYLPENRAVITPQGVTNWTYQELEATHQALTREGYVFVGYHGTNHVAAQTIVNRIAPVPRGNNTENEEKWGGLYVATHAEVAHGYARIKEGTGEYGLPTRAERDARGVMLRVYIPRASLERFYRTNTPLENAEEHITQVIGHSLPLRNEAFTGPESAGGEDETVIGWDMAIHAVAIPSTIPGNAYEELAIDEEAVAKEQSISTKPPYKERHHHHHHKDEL
Question: B1 was tested. Which “IC50 (killing of Jurkat cells)” value did it give?
Answer: 0.4 nM
